Laboratory results published in the supplement of paper PMC9931576.
Numbering of substitutions follows the chain as printed. Human monoclonal antibodies against the spike receptor-binding domain (heavy:light variable regions). IC50 against pseudoviruses bearing the spike of naturally observed variants; lower = stronger; >10 µg/ml means not reached at the top dose. No active / inactive call. The stated detection limit is 0.0005 µg/ml; values near or below 0.001 µg/ml lie at the floor of the assay.

B1: BD58-0444 (protein)
chain 1: QVQLVQSGAEVKKPGASVKVSCKTSGYTFTGYYMHWVRQAPGQGLQWMGWINPNSGGTNYAQKFQGRVTMTRDTSISIAYMELSRLRSDDTAVYYCARDSGYCSSISCSPTDYWGQGTLVTVSS
chain 2: DIQMTQSPSSLSASVGDRVTITCQASQDISNHLNWYQQKPGKAPKLLIYDASNLETGVPSRFSGSGSGTDFTFTISSLQPEDIATYYCQLYDNLLLTWTFGQGTKVEIK
B2: BD56-432 (protein)
chain 1: QVQLVESGGGVVQPGRSLRLSCAASGFTFIGYGMHWVRQAPGKGLEWVAIISYDGGKEYYADSVKGRFTISRDNSKNTLHLQMNSLRDEDTAVYYCGKDGASKSGWLGELIPSGRLDSWGQGTLVTVSS
chain 2: ETVMTQSPATLSVSPGERATLSCRASQSISTNLAWYQQKPGQAPRLLIYGASTRATGIPARFSGSGSGTEFTLTISSLQSDDFAVYYCQEYNNWRRVTFGPGTKVNIK
B3: BD56-424 (protein)
chain 1: QVKLVQSGPEVKKPGTSVKVSCEASGFTFSSVTAIQWVRQPRGQGLEWIGWIVVGTGNANYEPKFQERVTITRDMSASTVYMELSSLRSEDTAVYYCAAPSCTSTTCLDGFDIWGQGTMVTVSS
chain 2: EIVLTQSPGTLSLSPGERATLSCRVSQSVSRGYLAWYQQKPGQAPRLLIYGASSRATGIPDRFSGRGSGTDFTLTINRLEPEDFAVYYCQQYGSSPWTFGQGTKVEIK
B4: BD58-0437 (protein)
chain 1: QVQLVVSGGGLVKPGGSLRVSCAASGFTFSDYYMSWIRQAPGKGLEWVSYISSSGSTIYYADSVKGRFTISRDNAKNSLYLQMNSLRAEDTAVYYCARGLNGDLDYWGQGTLVTVSS
chain 2: DIQMTQSPSTLSASVGDRVTITCRASQSISSWLAWYQQKPGKAPNLLIYMASSLEGGVPSRFSGSGSGTEFTLTISSLQPDDFATYYCQQYNSYSAWTFGQGTKVEIK
B5: BD58-0422 (protein)
chain 1: EVQLVESGGGLVQPGGSLRLSCAASGFTFSIYSMNWVRQAPGKGLEWVSYISRSSSTIYYADSVKGRFTISRDNAKNSLYLQMNSLRDEDTAVYYCAREGVGDIVLIPAAMEFDYWGQGTLVTVSS
chain 2: QSVLTQPPSVSGAPGQRVTISCTGSSSNIGAGYDVHWYQQLPGTAPKLLIYGNNNRPSGVPDRFSGSKSGTSASLAITGLQGEDEADYYCQSYDTGLSGVVFGGGTKLTVL
B6: BD58-0447 (protein)
chain 1: QVQLVESGGGVVQPGRSLRLSCAASGFTLSSYAMHWVRQAPGKGLEWVAVISLDGSNKYYADSVKGRFTISRDNSKDTLYLQMNSLRTEDTAVYYCASTLDYGDLPYDYWGQGTLVTVSS
chain 2: EIVLTQSPDFQSVTPKEKVTITCRASQSIGSSLHWYQQKPDQSPKLLIKYASQSISGVPSRFSGSGSGTDFTLTINSLEAEDAAAYYCHQSSSLPLTFGPGTKVDIK
B7: BD56-277 (protein)
chain 1: QVQLVQSGAEVKKPGSSVKVSCKASGGTFSSYAISWVRQAPGQGLEWMGRIIPILGIANYAQKFQGRVIITADKSTSTAYMELSSLRSEDTAVYYCLLREMATDYWGQGTLVTVSS
chain 2: SYELTQPPSVSVSPGQTASITCSGDKLGDKYAHWYQQKPGQSPVLVIYEDNKRPSGIPERFSGSNSGNTATLTISGTQAMDEADYYCQAWDSTTEVFGTGTKVTVL
B8: BD58-0405 (protein)
chain 1: EVQLVESGGGVVQPGGSLRLSCAASGFTFDAYVMHWVRQAPGKGLEWVSLISGDGGSTYSADSVKGRFTISRDNSKNSLYLQMNSLRTEDTALYYCLFGDYGNWLDPWGQGTLVTVSS
chain 2: SYVLTQPPSVSVAPGQTARITCGGNNIGSKSVHWYQQKPGQAPVLVVYDDSDRPSGIPERFSGSNSGNTATLTISRVEAGDEADYSCQVWDSSSDHPVFGGGTKLTVL
B9: BD58-0423 (protein)
chain 1: QLPSQESGPGLVKPSETLSLTCTVSGASISSSTYYWGWIRQPPGKGLEWIGSIYYSGSTYYNPSLKSRVTISVDTSKKQFSLKLSSVTAADTAVYYCAMTYDSSGYPSNDAFDIWGQGTMVTVSS
chain 2: B8 chain 2 with Q16K, V47I, D49Y, S86Y, S93T, P97V, V98L
B10: BD58-0416 (protein)
chain 1: EVQLVESGGGLVQPGGSLRLSCAASGFTFSSYEMNWVRQAPGKGLEWVSYISSSGSTIYYADSVKGRFTISRDNAKNSLYLQMNSLRAEDTAVYYCAISLGVPGAMPSYYYFGMDVWGQGTTVTVSS
chain 2: QSVLTQPPSASGTPGQRVTISCSGSSSNIGSNYIYWYQQLPGTAPKLLIYSNNQRPSGVPDRFSGSKSGTSASLAISGLRSEDEADYYCATWDDSLSGWVFGGGTKLTVL
B11: BD58-0400 (protein)
chain 1: EVQLVESGGGLVQPRGSLRLSCAASGFTFSSYEMNWVRQAPGKGLEWVSYISSSGNTIYYADSVKGRFTISRDNAKNSLYLQMNSLRAEDTAVYYCASHQGYYYYMDVWGKGTTVTVSS
chain 2: EIVMTQSPDTLSVSPGERATLSCRASQSVSSKLAWYQQKPGQAPRLLIYGASTRATGVPARFSGSGSGTEFTLSISSLQSEDFAVYYCQQYNNWPPITFGQGTRLEIK

Legend:
Experiment in all cases: pseudovirus neutralization IC50; higher = weaker neutralization
[1] = target: SARS-CoV-2 Omicron BA.1 spike pseudovirus
Method: (§1)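 Single-round VSV luciferase pseudovirus mixed with antibody dilutions for 1 h and put on Huh-7 cells for about a day; IC50 from the dose curve.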

[2] = target: SARS-CoV-2 Omicron BA.2 spike pseudovirus
Method: as §1

[3] = target: SARS-CoV-2 Omicron BA.2.75 spike pseudovirus
Method: as §1

[4] = target: SARS-CoV-2 Omicron BA.2.75.2 spike pseudovirus
Method: as §1

[5] = target: SARS-CoV-2 Omicron BA.5 spike pseudovirus
Method: as §1

[6] = target: SARS-CoV-2 Omicron BM.1.1.1 spike pseudovirus
Method: as §1

[7] = target: SARS-CoV-2 Omicron BQ.1.1 spike pseudovirus
Method: as §1

[8] = target: SARS-CoV-2 Omicron BR.2 spike pseudovirus
Method: as §1

[9] = target: SARS-CoV-2 Omicron CA.1 spike pseudovirus
Method: as §1

[10] = target: SARS-CoV-2 Omicron XBB spike pseudovirus
Method: as §1

[11] = target: SARS-CoV-2 early D614G spike pseudovirus
Method: as §1

| Binder | pseudovirus neutralization IC50 [1] | pseudovirus neutralization IC50 [2] | pseudovirus neutralization IC50 [3] | pseudovirus neutralization IC50 [4] | pseudovirus neutralization IC50 [5] | pseudovirus neutralization IC50 [6] | pseudovirus neutralization IC50 [7] | pseudovirus neutralization IC50 [8] | pseudovirus neutralization IC50 [9] | pseudovirus neutralization IC50 [10] | pseudovirus neutralization IC50 [11] |
| --- | --- | --- | --- | --- | --- | --- | --- | --- | --- | --- | --- |
| B1 | > 10 µg/mL | 0.00892 µg/mL | > 10 µg/mL | > 10 µg/mL | > 10 µg/mL | > 10 µg/mL | > 10 µg/mL | > 10 µg/mL | > 10 µg/mL | > 10 µg/mL | > 10 µg/mL |
| B2 | 0.183 µg/mL | 0.141 µg/mL | 0.225 µg/mL | – | > 10 µg/mL | – | > 10 µg/mL | – | – | > 10 µg/mL | 0.00198 µg/mL |
| B3 | 0.00412 µg/mL | 0.00403 µg/mL | 0.00154 µg/mL | – | 3.9 µg/mL | – | 3.91 µg/mL | – | – | > 10 µg/mL | 0.00106 µg/mL |
| B4 | 0.00441 µg/mL | 0.00946 µg/mL | > 10 µg/mL | > 10 µg/mL | > 10 µg/mL | > 10 µg/mL | > 10 µg/mL | > 10 µg/mL | > 10 µg/mL | > 10 µg/mL | > 10 µg/mL |
| B5 | 0.0104 µg/mL | 0.0156 µg/mL | > 10 µg/mL | > 10 µg/mL | > 10 µg/mL | > 10 µg/mL | > 10 µg/mL | > 10 µg/mL | > 10 µg/mL | > 10 µg/mL | > 10 µg/mL |
| B6 | 0.0664 µg/mL | 0.0369 µg/mL | > 10 µg/mL | > 10 µg/mL | > 10 µg/mL | > 10 µg/mL | > 10 µg/mL | > 10 µg/mL | > 10 µg/mL | > 10 µg/mL | > 10 µg/mL |
| B7 | 0.118 µg/mL | 0.451 µg/mL | 0.351 µg/mL | > 10 µg/mL | > 10 µg/mL | > 10 µg/mL | > 10 µg/mL | > 10 µg/mL | > 10 µg/mL | > 10 µg/mL | > 10 µg/mL |
| B8 | > 10 µg/mL | 0.033 µg/mL | > 10 µg/mL | > 10 µg/mL | 0.00682 µg/mL | > 10 µg/mL | > 10 µg/mL | > 10 µg/mL | > 10 µg/mL | > 10 µg/mL | > 10 µg/mL |
| B9 | > 10 µg/mL | 0.137 µg/mL | > 10 µg/mL | > 10 µg/mL | > 10 µg/mL | > 10 µg/mL | > 10 µg/mL | > 10 µg/mL | > 10 µg/mL | > 10 µg/mL | > 10 µg/mL |
| B10 | 0.738 µg/mL | 0.0068 µg/mL | > 10 µg/mL | > 10 µg/mL | > 10 µg/mL | > 10 µg/mL | > 10 µg/mL | > 10 µg/mL | > 10 µg/mL | > 10 µg/mL | > 10 µg/mL |
| B11 | 0.891 µg/mL | 0.0488 µg/mL | > 10 µg/mL | > 10 µg/mL | > 10 µg/mL | > 10 µg/mL | > 10 µg/mL | > 10 µg/mL | > 10 µg/mL | > 10 µg/mL | > 10 µg/mL |
